A mixed list of measured activities; the numbers were collected in NIAID ChemDB.

All rows: tests in culture; agent: HIV-1; cells: MT-4; measure: EC50

a–b is a range or a potency band. Blank or dashed fields: not listed here. Lines come from different laboratories, so protocols vary. ECn: concentration that inhibits the pathogen or its effect by n%.

SMILES,strain or isolate,changes,method,conditions,result
CN(C)CC1c2nc(C(=O)NCc3ccc(F)cc3)c(O)c(=O)n2CCN1Cc1cocn1,,,p24,,1–10 µM
CC(C)n1c(=O)c(O)c2n(c1=O)C(CCN(C)C(=O)c1ccccc1)CN(Cc1ccc(F)cc1)C2=O,,,p24,,<10 µM
Clc1ccc2c(c1)nnc1c(Br)cnn12,IIIB,,cytopathic effect / MTT,,>200 µM
CN1c2ccccc2C2C1C=CC(=O)N2c1ccc(-c2noc(=O)[nH]2)cc1,LAI,,cytopathic effect / MTT,,>32 µM
Cn1c(=O)c(O)c2n(c1=O)CCN(Cc1ccc(F)cc1)C2=O,,,p24,,<10 µM
CCOC(=O)c1cnn2c1n[n+]([O-])c1ccccc12,IIIB,,cytopathic effect / MTT,,>143 µM
O=C1c2c(O)c(=O)n(CC3CCCN(c4ncccn4)C3)c(=O)n2CCN1Cc1ccc(F)cc1,,,p24,,<10 µM
Cc1cc(C#N)cc(C)c1Oc1nc(NC2CCC(NCc3ccc(S(C)(=O)=O)cc3)CC2)nc2ccsc12,RES056,,MTT,,>75.2 µM
Cc1cccc(C)c1OCC(=O)N[C@@H](Cc1ccccc1)[C@H](O)CN(CC(C)C)S(=O)(=O)c1ccc2ncn(CCc3ccccc3)c2c1,LAI WT,,cytopathic effect / MTT,,0.398 µM
CC(=O)N(CC1CCCCC1)C1CN(C)CCn2c1nc(C(=O)NCc1ccc(F)cc1)c(O)c2=O,,,p24,,<1 µM
CCOC(=O)c1cnn2c1nnc1ccc(Cl)cc12,IIIB,,cytopathic effect / MTT,,>5.2 µM
COC(=O)c1ccc(CN2CCC(Nc3nc(Oc4c(C)cc(C#N)cc4C)c4ccsc4n3)CC2)cc1,IIIB,NNRTI-resistant (RT L100I),MTT,,0.134 µM
CCC(C)[C@@H](C(=O)N[C@@H](Cc1ccccc1)[C@H](O)CN(CC(C)C)S(=O)(=O)c1ccc(/C=N/O)cc1)N1CCN(Cc2ccccn2)C1=O,A17 (LPV-resistant),PR-L10F V32I M46I I47V Q68E I84V,cytopathic effect / MTT,,0.012 µM
CN(C)CC1NCCn2c1nc(C(=O)NCc1ccc(F)cc1)c(O)c2=O,,,p24,,<50 µM
N#CC1=CC2C(c3ccccc3N2CCN2CCCC2)N(c2ccc([N+](=O)[O-])cc2)C1=O,LAI,,cytopathic effect / MTT,,<1 µM
CON(C)CCC1CN(Cc2ccc(F)cc2)C(=O)c2c(O)c(=O)n(C(C)C)c(=O)n21,,,p24,,<10 µM
N#Cc1cnn2c1n[n+]([O-])c1ccc(Cl)cc12,IIIB,,cytopathic effect / MTT,,>25 µM
COC(=O)Nc1nc2ccc(S(=O)(=O)N(CC(C)C)C[C@@H](O)[C@H](Cc3ccccc3)NC(=O)c3ccc(N)cc3C)cc2[nH]1,LAI WT,,cytopathic effect / MTT,,0.04 µM
CSCC[C@H](C)OC(=O)[C@@H](N)c1ccccc1-c1cccc2ccccc12,NL4-3,,MTT,,31 µM
CC(C)CN(C[C@@H](O)[C@H](Cc1ccccc1)NC(=O)[C@H](C(C)C)N1CC(=O)N(Cc2ccccn2)C1=O)S(=O)(=O)c1ccc(/C=N/O)cc1,,,cytopathic effect / MTT,50% human serum,0.059 µM
Cc1cc(/C=C/C#N)cc(C)c1Oc1nc(NC2CCN(Cc3cccc(F)c3)CC2)nc2ccsc12,IIIB,NNRTI-resistant (RT L100I),MTT,,0.022 µM
CN1CCN(CCC2CN(Cc3ccc(F)cc3)C(=O)c3c(O)c(=O)n(C4CC4)c(=S)n32)CC1,,,p24,,<10 µM
CC(C)[C@H](NC(=O)OCc1ccccn1)C(=O)N[C@@H](Cc1ccccc1)[C@@H](O)C[C@H](Cc1ccccc1)NC(=O)OCc1cccnc1,NL4-3,PR-L63P,p24,,<1.5 µM
CCC(C)[C@@H](C(=O)N[C@@H](Cc1ccccc1)[C@H](O)CN(CC(C)C)S(=O)(=O)c1ccc(/C=N/O)cc1)N1CCN(Cc2cccc(COC)n2)C1=O,,,cytopathic effect / MTT,50% human serum,0.022 µM
CN1CCn2c(nc(C(=O)NCc3ccc(F)cc3)c(O)c2=O)C(N(CC2CCCCC2)C(=O)C(=O)N(C)C)C1,,,p24,,<1 µM
Cc1cc(C#N)cc(C)c1Oc1nc(NC2CCC(NCc3ccc(F)cc3)CC2)nc2ccsc12,IIIB,NNRTI-resistant (RT F227L V106A),MTT,,>2.77 µM
CCC(C)[C@@H](C(=O)N[C@@H](Cc1ccccc1)[C@H](O)CN(CC(C)C)S(=O)(=O)c1ccc(/C=N/O)cc1)N1CCN(Cc2ccncc2)C1=O,,,cytopathic effect / MTT,50% human serum,0.023 µM
O=C1c2c(O)c(=O)n(C3CCCCC3N3CCOCC3)c(=O)n2CCN1Cc1ccc(F)cc1,,,p24,,<10 µM
CCC(C)[C@@H](C(=O)N[C@@H](Cc1ccccc1)[C@H](O)CN(CC(C)C)S(=O)(=O)c1ccc(/C=N/O)cc1)N1CCN(Cc2cccc(C)n2)C1=O,A17 (LPV-resistant),PR-L10F V32I M46I I47V Q68E I84V,cytopathic effect / MTT,,0.007 µM
COC(=O)Nc1nc2ccc(S(=O)(=O)N(CC(C)C)C[C@@H](O)[C@H](Cc3ccccc3)NC(=O)COc3c(C)cc(N(C)C)cc3C)cc2[nH]1,LAI WT,,cytopathic effect / MTT,,0.032 µM
CN(C)C(=O)C(=O)N1CCn2c(nc(C(=O)NCc3ccc(F)cc3)c(O)c2=O)C1(C)C,,,p24,,<1 µM
Cc1cc(C#CCCO)cc(C)c1Oc1ccnc(Nc2ccc(C#N)cc2)n1,IIIB,F227L + V106A,MTT,,1.684 µM
O=[N+]([O-])c1ccc2c(c1)nnc1ccnn12,IIIB,,cytopathic effect / MTT,,>30.7 µM
Cc1nc(C2=CC3C(c4ccccc4N3C)N(c3ccc([N+](=O)[O-])cc3)C2=O)no1,LAI,,cytopathic effect / MTT,,1–32 µM
CCOC(=O)c1ccc(CN2CCC(Nc3nc(Oc4c(C)cc(C#N)cc4C)c4ccsc4n3)CC2)cc1,IIIB,NNRTI-resistant (RT Y188L),MTT,,1.85 µM
N#CCN1c2ccccc2C2C1C=C(C#N)C(=O)N2c1ccc([N+](=O)[O-])cc1,LAI,,cytopathic effect / MTT,,<1 µM
Cc1cc(/C=C/C#N)cc(C)c1Oc1nc(NC2CCN(Cc3ccccc3C#N)CC2)nc2ccsc12,IIIB,NNRTI-resistant (RT L100I),MTT,,0.0151 µM
CC(C)CN(C[C@@H](O)[C@H](Cc1ccccc1)NC(=O)OCc1cncs1)S(=O)(=O)c1ccc2ncn(CC(C)C)c2c1,LAI WT,,cytopathic effect / MTT,,0.04 µM

3 of the rows above, restated:

SMILES,strain or isolate,changes,method,conditions,result
CCC(C)[C@@H](C(=O)N[C@@H](Cc1ccccc1)[C@H](O)CN(CC(C)C)S(=O)(=O)c1ccc(/C=N/O)cc1)N1CCN(Cc2ccccn2)C1=O,A17 (LPV-resistant),PR-L10F V32I M46I I47V Q68E I84V,cytopathic effect / MTT,,0.012 µM
CN1c2ccccc2C2C1C=CC(=O)N2c1ccc(-c2noc(=O)[nH]2)cc1,LAI,,cytopathic effect / MTT,,>32 µM
CC(C)n1c(=O)c(O)c2n(c1=O)C(CCN(C)C(=O)c1ccccc1)CN(Cc1ccc(F)cc1)C2=O,,,p24,,<10 µM